The values that follow come from patent publication US7030140B2, “Substituted benzimidazole antiviral agents” (Bristol-Myers Squibb Company, priority 1998, dated 2006).

Some compounds may have been tested in ways that are not shown here.

For data set [1], the system named is respiratory syncytial virus Long strain. The note with it: 4 μg/mL of compound; RSV Long strain-infected HEp-2 cells; compound added 1 hour post infection; 4 days; MTT.
The test system of data set [2] is HEp-2 (ATCC CCL 23) cells. Briefly: Cellular toxicity, MTT staining in uninfected HEp-2 cells. The note with it: concentration giving normalized OD540 half that of untreated uninfected cells.

Regarding `c1ccc2c(c1)nnn2Cc1nc2ccccc2n1CCN1CCCCCC1`, the “% Cell protection at 4 μg/mL” value in data set [1] came to 73%. Besides, the CC50 in data set [2] amounted to 67 µM. The matching figures for `CN(C)CCn1c(Cn2nnc3ccccc32)nc2cc(Cl)c(Cl)cc21`: 97% and 18 µM. For `Cc1cc2nnn(Cc3nc4ccccc4n3CCN(C)C)c2cc1C` the same measures were 90% and 118 µM. Consider `c1ccc2c(c1)nnn2Cc1nc2ccccc2n1CCN1CCCCC1`, for which, in data set [1], the “% Cell protection at 4 μg/mL” value is listed as 92%. As for `c1ccc2nn(Cc3nc4ccccc4n3CCN3CCCC3)nc2c1`, in data set [1], the “% Cell protection at 4 μg/mL” value was determined as 92%. This compound also displayed a CC50 in data set [2] of 140 µM. The matching figures for `CNCCn1c(Cn2nnc3ccccc32)nc2ccccc21`: 100% and 74 µM. Consider `c1ccc2c(c1)nnn2Cc1nc2ccccc2n1CCN1CCCC1`, for which the “% Cell protection at 4 μg/mL” value in data set [1] turned out to be 90%. Besides, the 50% cytotoxic concentration (CC50) in data set [2] came to 80 µM. The matching figures for `CN1CCC[C@H]1Cn1c(Cn2nnc3ccccc32)nc2ccccc21`: 53% and 24 µM. The matching figures for `CN1CCC[C@@H]1Cn1c(Cn2nnc3ccccc32)nc2ccccc21`: 54% and 105 µM. For `Cc1cc2nc(Cn3nnc4ccccc43)n(CCN(C)C)c2cc1C` the same measures were 100% and 92 µM. Turning to `c1ccc2nn(Cc3nc4ccccc4n3CCN3CCCCCC3)nc2c1`, the “% Cell protection at 4 μg/mL” value in data set [1] was 77%. Consider `c1ccc2nn(Cc3nc4ccccc4n3CCN3CCCCC3)nc2c1`, for which the “% Cell protection at 4 μg/mL” value in data set [1] is listed as 87%. The same compound displayed a CC50 in data set [2] of 65 µM. Turning to `CC(C)N(CCn1c(Cn2nnc3ccccc32)nc2ccccc21)C(C)C`, the “% Cell protection at 4 μg/mL” value in data set [1] was 55%. The compound also displayed a 50% cytotoxic concentration (CC50) in data set [2] of 42 µM. For `NCCn1c(Cn2nnc3ccccc32)nc2ccccc21`, the “% Cell protection at 4 μg/mL” value in data set [1] turned out to be 81%. In data set [2], this compound came in with a CC50 of 86 µM.

By CC50 is commonly meant the concentration that lowers cell viability or growth by half. A higher CC50 goes with lower toxicity to the cells.
